Experiments:
[1] = tested on: Leishmania (Leishmania) amazonensis axenic amastigotes; assay type: cell-based; details: SI = CC50 Raw 264.7/EC50
Method: (§1) Strains of Leishmania (Leishmania) amazonensis (IFLA/BR/67/PH8) (promastigote form) were cultivated in Schneider’s insect medium (supplemented with 10% FBS, and 1% antibiotic solution), at 26 °C, and at pH 7, in a biological oxygen demand (BOD) incubator. To transform the promastigote forms into axenic amastigotes, the temperature was increased to 32 °C and the pH of the medium was adjusted to 5.5 [14].
(§2) Promastigote and axenic amastigote growth inhibition was tested as previously described by DIAS et al.. In a 96-well plate, parasites were seeded at 10^6 parasites per well in 100 μL of supplemented Schneider medium. The parasites were treated with differing concentrations of β-ocimene (1.56–12.5 μM), and reference drugs, meglumine antimoniate (500–40,000 μM) and amphotericin B (0.062–0.5 μM). The plates were incubated in a BOD incubator at 26 °C for 72 h. Afterwards, 10 µL of MTT (5 mg/mL) was added to each well, and the plate was incubated again for 4 h, when 50 µL of 10% SDS was added. Absorbances were then measured using an ELISA plate reader (BioSystems model ELx800, Curitiba, PR, Brazil) at 540 nm. The negative control consisted of Schneider medium with 0.5% DMSO and was considered as 0% inhibition.

[2] = tested on: Leishmania (Leishmania) amazonensis promastigotes; assay type: cell-based; details: SI = CC50 Raw 264.7/IC50
Method: as §1, §2

C=C/C(C)=C/CC=C(C)C [β-ocimene, beta-3,7-dimethyl-1,3,6-octatriene]
Axenic Amastigotes SI [1]: 102.23 | Promastigotes SI [2]: 41.18

Meglumine antimoniate [reference compound]
Axenic Amastigotes SI [1]: 9.16 | Promastigotes SI [2]: 0.73

C[C@@H]1[C@H](O)[C@@H](C)/C=C/C=C/C=C/C=C/C=C/C=C/C=C/[C@H](O[C@@H]2O[C@H](C)[C@@H](O)[C@H](N)[C@@H]2O)C[C@@H]2O[C@](O)(C[C@@H](O)C[C@@H](O)[C@H](O)CC[C@@H](O)C[C@@H](O)CC(=O)O[C@H]1C)C[C@H](O)[C@H]2C(=O)O [Amphotericin B, reference compound]
Axenic Amastigotes SI [1]: 0.76 | Promastigotes SI [2]: 1.11
